For at least one entry, the source does not settle the construct or the ends of the probe. At least one verdict rests on a figure or table, not on a statement of the authors.
Target: N FL (SARS-CoV-2 nucleoprotein, full length) (SARS-CoV-2 (initial Wuhan strain, wt)) (UniProt P0DTC9)
Test: DLS
Settings: recombinant protein; residues 1-419; protein details: His6; single-stranded DNA

“ATATATATCTATGTCCATATATATATAAAACACAGCGTGTGTGTGTAA [48-mer DNA]”: binds.
